Experimental data taken from US20160264648A1 (OSAKA UNIVERSITY, published 2016).

B1: human monoclonal antibody (HuMAb) 2H5 (antibody, V domains shown)
VH: QVQLVQSGAEVKKPGSSVKVSCKSSGGNFNNYAVSWVRQAPGQGLEWMGGISPIFGSTNHAQKFQGRVTISADIFTNTAYMELSSLRSDDTAIYYCARGRGYYFYHAMDVWGQGSTVTVSS
VL: QSVLTQPPSVSAAPGQKVTISCSGSSSNIGHNFVSWYQQLPATAPKLLIYDTDKRPSGIPDRFSGSKSGTSATLGITGLQTGDEADYYCGTWDSSLSSVIFGGGTKLTVL
B2: human monoclonal antibody (HuMAb) 1H11 (antibody, V domains shown)
VH: B1 VH
VL: QSALTQPASVSGSPGQSITISCTGTSSDVGGYNYVSWYQQHPGEAPKLMISDVSNRPSGVSNRFSGSKSGNTASLTISGLQAEDEADYYCTSYTSSNTLVFGGGTKLTVL

Molecular target: hemagglutinin (HA) of influenza A virus A/California/07/2009 (H1N1pdm) (influenza A virus A/California/07/2009 …)
Assay: cell-based or functional assay

| Binder | Neutralization activity (VN50 value µg/ml) [µg/mL] |
| --- | --- |
| B1 | 2.82 |
| B2 | 1.52 |
